Compound potency records, mixed from different reports. Data source: NIAID ChemDB in PubChem.

Common to all: growth or infection tests; organism: Aspergillus niger

An empty or dashed field is not shown. Two numbers with a dash give a range or band. ECn is the concentration giving n% inhibition of infection, replication or growth. Percent inhibition refers to the dose given; in toxicity tests it is the harm to the cells. Neighbouring rows are from separate reports. Zone: diameter of growth inhibition. MIC50, MIC90 and the like: level of inhibition, or share of isolates inhibited.

structure	strain or isolate	method	read-out	tested at	value
COc1ccc2c(c1)C(=O)C(c1ccc(-c3ccc(Cl)cc3)cc1)=[N+]2[O-]			MFC		>250 µg/mL
O=C/C=C/c1ccccc1	NRRL 501	broth dilution	MFC		160 µg/mL
CC(=O)c1cn(Cc2nnn(CC(=O)NN)n2)c2ccccc12		agar	MIC99		140 µg/mL
CN(C)C1=NC(=O)/C(=C/c2ccc(Cl)cc2)S1	ATCC 9029	broth dilution	MIC100		>250 µg/mL
C[C@@H]1[C@H](O)[C@@H](C)/C=C/C=C/CC/C=C/C=C/C=C/C=C/C(O[C@H]2O[C@H](C)[C@@H](O)[C@H](N)[C@@H]2O)CC2O[C@](O)(CC(O)C(O)CCC(O)CC(O)CC(O)CC(=O)O[C@H]1C)CC(O)C2C(=O)O	ATCC 16404	broth dilution	MIC100		0.78 µg/mL
Clc1ccc([Se][Se]c2ccc(Cl)cc2)cc1		broth dilution	MFC		>64 µg/mL
O=C1C=C(NCCN2CCOCC2)C(=O)c2ccccc21	MTCC 404	broth dilution	MIC100		62.5 µg/mL
CCC(C)CC(C)CCCCCCCCC(=O)N[C@H]1C[C@@H](O)[C@H](NCCN)NC(=O)[C@@H]2[C@@H](O)CCN2C(=O)[C@H]([C@H](O)CCN)NC(=O)[C@H]([C@H](O)[C@@H](O)c2ccc(O)cc2)NC(=O)[C@@H]2C[C@@H](O)CN2C(=O)[C@H]([C@@H](C)O)NC1=O			MIC90		0.125–0.25 µg/mL
COc1ccc2c(c1)C(=O)C(c1cccnc1)=[N+]2[O-]			MFC		250 µg/mL
CC(=O)N(c1ccccc1)c1nc(C)cc(C)n1			zone	100 µg/mL	2.7 mm
O=C1C(c2ccccn2)=[N+]([O-])c2ccccc21			MFC		62.5 µg/mL
Cc1ccc(C(C)C)cc1			EC50		1.2 µg/mL
O=C1C(c2ccc(Cl)cc2)=[N+]([O-])c2ccccc21			MFC		>50 µg/mL
CCCCCOc1ccc(-c2cc(-c3ccc(C(=O)N[C@H]4C[C@@H](O)[C@@H](O)NC(=O)[C@@H]5[C@@H](O)[C@@H](C)CN5C(=O)[C@H]([C@H](O)CC(N)=O)NC(=O)[C@H]([C@H](O)[C@@H](O)c5ccc(O)c(OS(=O)(=O)O)c5)NC(=O)[C@@H]5C[C@@H](O)CN5C(=O)[C@H]([C@@H](C)O)NC4=O)cc3)no2)cc1			MIC50		0.015 µg/mL
CC(=O)OC1OC(Sc2nnc(Cn3nnc(Cn4cc(C(C)=O)c5ccccc54)n3)n2-c2ccc(Cl)cc2)C(OC(C)=O)C(OC(C)=O)C1OC(C)=O		agar	MIC99		150 µg/mL
Oc1cc(O)c2c(c1)O[C@H](c1ccc(O)c(O)c1)[C@@H](O)C2			inhibition	1000 µg/mL	78%
FC(F)(F)c1cccc([Se][Se]c2cccc(C(F)(F)F)c2)c1		broth dilution	MFC		>64 µg/mL
Cc1ccc(C(C)C)cc1O			EC50		0.6 µg/mL
Cc1cc(C)nc(Nc2ccccc2)n1			zone	100 µg/mL	3.2 mm
C[C@@H]1[C@H](O)[C@@H](C)/C=C/C=C/CC/C=C/C=C/C=C/C=C/C(O[C@H]2O[C@H](C)[C@@H](O)[C@H](N)[C@@H]2O)CC2O[C@](O)(CC(O)C(O)CCC(O)CC(O)CC(O)CC(=O)O[C@H]1C)CC(O)C2C(=O)O	MTCC 404	broth dilution	MIC100		62.5 µg/mL
C[C@@H](c1nc(-c2ccc(C#N)cc2)cs1)[C@](O)(Cn1cncn1)c1cc(F)ccc1F			MIC90		2–4 µg/mL
COc1cc(/C=C2\SC(N(C)C)=NC2=O)cc(OC)c1OC	ATCC 9029	broth dilution	MIC100		>250 µg/mL
C[C@@H](c1ncncc1F)[C@](O)(Cn1cncn1)c1ccc(F)cc1F			MIC90		1–2 µg/mL
CN(C)C1=NC(=O)/C(=C/c2ccc(F)cc2)S1	ATCC 9029	broth dilution	MIC100		>250 µg/mL
Cc1nc(Nc2ccccc2)nc(C)c1C#N			zone	10 µg/mL	1.4 mm
OC(Cn1cncn1)(Cn1cncn1)c1ccc(F)cc1F	CCAM 080002	broth dilution	MFC100		2.5 µg/mL
CC(C)=CCC/C(C)=C/CO	IOA-3	broth dilution	MFC		288 µg/mL

4 of the rows above, restated:

structure	strain or isolate	method	read-out	tested at	value
COc1cc(/C=C2\SC(N(C)C)=NC2=O)cc(OC)c1OC	ATCC 9029	broth dilution	MIC100		>250 µg/mL
OC(Cn1cncn1)(Cn1cncn1)c1ccc(F)cc1F	CCAM 080002	broth dilution	MFC100		2.5 µg/mL
O=C1C(c2ccc(Cl)cc2)=[N+]([O-])c2ccccc21			MFC		>50 µg/mL
CN(C)C1=NC(=O)/C(=C/c2ccc(F)cc2)S1	ATCC 9029	broth dilution	MIC100		>250 µg/mL